Compound potency records, mixed from different reports. Data source: NIAID ChemDB in PubChem.

Common to all: tests in culture; organism: HIV-1; cells: MT-4; read-out: EC50

ECn: concentration that inhibits the pathogen or its effect by n%. Blank or dashed fields: not listed here. Conditions beyond the fields shown may differ between rows. Two numbers with a dash give a range or band.

SMILES	strain	mutations	method	conditions	value
Brc1ccc(-c2csc(N/N=C/c3ccccn3)n2)cc1	IIIB	-	MTT	-	>2.71 µM
Cc1cc(C#N)cc(C)c1Oc1nc(Nc2ccc(C#N)cc2)ncc1SCC(=O)NCCN1CCN(C(=O)OC(C)(C)C)CC1	-	Y181C	MTT	-	0.1362 µM
Cc1cc(C)cc(Sc2c(C(=O)NCCO)[nH]c3ccc(Cl)cc23)c1	IIIB	-	cytopathic effect / MTT	-	0.012 µM
COCCNC(=O)CSc1cnc(Nc2ccc(C#N)cc2)nc1Oc1c(C)cc(C#N)cc1C	-	Y188L	MTT	-	0.0207 µM
C#CCOCn1c(Cc2cc(Cl)cc(Cl)c2)c(CC)c(=O)[nH]c1=O	IIIB	-	cytopathic effect / MTT	-	0.02 µM
CC(C)[C@H](NC(=O)OCc1ccccn1)C(=O)N[C@@H](Cc1ccccc1)[C@@H](O)C[C@H](Cc1ccccc1)NC(=O)OCc1cccnc1	NL4-3	PR-L10R M46I	p24	-	<0.8 µM
Cc1cc(/C=C/C#N)cc(C)c1Oc1ccnc(Nc2ccc(CN3CCN(S(=O)(=O)N(C)C)CC3)cc2)n1	-	L100I	MTT	-	0.029 µM
CC(C)CN(C[C@@H](O)[C@H](Cc1ccccc1)NC(=O)O[C@H]1CO[C@H]2OCC[C@H]21)S(=O)(=O)c1ccc2nc(NCCN3CCCC3)n(CCc3ccccc3)c2c1	LAI WT	-	cytopathic effect / MTT	-	0.398 µM
CCOCn1c(Cc2ccccc2)c(C(C)C)c(=O)[nH]c1=O	IIIB	-	cytopathic effect / MTT	-	0.02 µM
CC(C)CN(C[C@@H](O)[C@H](Cc1ccccc1)NC(=O)O[C@H]1CO[C@H]2OCC[C@H]21)S(=O)(=O)c1ccc2nc(NC3CCN(C4CCCC4)CC3)sc2c1	T13717	V32I I50V L76V G73S V82I	reporter gene	-	68 nM
Cc1ccc(S(=O)(=O)c2c(C(=O)NNCCO)[nH]c3ccc(Cl)cc23)cc1	IIIB	-	cytopathic effect / MTT	-	0.04 µM
COP(=O)(c1cc(C)cc(CCC#N)c1)c1c(C(N)=O)[nH]c2ccc(Cl)c(F)c12	BH10	Y181C	cytopathic effect	-	0.0018 µM
CCOCn1c(Cc2cccc(Cc3c(CC)c(=O)[nH]c(=O)n3COCC)c2)c(CC)c(=O)[nH]c1=O	NNRTI-resistant	RT-Y181C	cytopathic effect / MTT	-	>100 µM
N#Cc1cc(Cl)cc(Oc2c(Br)ccc(CC(=O)Nc3ccc(S(N)(=O)=O)cc3Cl)c2F)c1	-	E138K	-	-	0.0023 µM
COc1cccc(F)c1C1SCC(=O)N1c1cccc(C)c1	IIIB	-	cytopathic effect	-	1.16 µM
CCCc1c(OC2CCCC2)c2cc(OC)ccc2[nH]c1=O	-	-	-	-	0.47 µM
C=CCOCn1c(Cc2cccc(Cc3[nH]c(=O)[nH]c(=O)c3CC)c2)c(CC)c(=O)[nH]c1=O	RT-K103N+Y181C NNRTI-resistant	RT-K103N Y181C	cytopathic effect / MTT	-	>100 µM
CN(C)CCCNC(=O)c1ccc(C2=NN3C(C(=O)c4ccc(Br)cc4)Oc4ccccc4C3C2)cc1	LAI	-	GFP / reporter gene	-	1–10 µM
CCc1c(Cc2cc(Cl)cc(Cl)c2)n(COCC=C(C)C)c(=O)[nH]c1=O	IIIB	-	cytopathic effect / MTT	-	0.05 µM
CCc1c(Cc2cccc(Cc3nc(N4CCCCC4)[nH]c(=O)c3CC)c2)nc(N2CCCCC2)[nH]c1=O	-	-	cytopathic effect / MTT	-	>75 µM
CC(C)(C)c1ccc(C(=O)C2Oc3ccccc3C3CC(c4ccc(C(=O)NC5CCCC5)cc4)=NN23)cc1	LAI	-	GFP / reporter gene	-	<1 µM
COc1cccc(OC)c1C1SCC(=O)N1c1cccc(C)c1	IIIB	-	cytopathic effect	-	1.91 µM
CCc1c(Cc2cccc(Cc3nc(SC(C)CC)[nH]c(=O)c3CC)c2)nc(SC(C)CC)[nH]c1=O	-	-	cytopathic effect / MTT	-	>27 µM
C=CCNC(=O)CSc1cnc(Nc2ccc(C#N)cc2)nc1Oc1c(C)cc(C#N)cc1C	-	Y188L	MTT	-	0.0452 µM
Cc1cccc(C)c1CNC(=O)[C@@H]1CCCCN1C(=O)[C@@H](O)C[C@@H](Cc1ccccc1)C(=O)N[C@H]1c2ccccc2OC[C@H]1O	NL4-3	-	p24	-	<1 µM
COc1cccc(F)c1C1SCC(=O)N1c1nccc(C)n1	IIIB	-	cytopathic effect	-	0.532 µM
COc1cc(/C(C)=N/Nc2nc(-c3ccc(Cl)cc3)cs2)cc(OC)c1OC	IIIB	-	MTT	-	>16.39 µM
Cc1nc2ccccc2c(-c2cc(F)c3c(c2C)CCCO3)c1[C@H](OC(C)(C)C)C(=O)O	NL4-3	E92Q	luminescence	-	0.017 µM
Cc1cccc(S(=O)(=O)c2c(C(=O)NCCO)[nH]c3ccc(Cl)cc23)c1	-	RT-K103N Y181C	cytopathic effect / MTT	-	1.1 µM
CCOC(=O)C(CC)C(=O)Cc1cccc(Cc2[nH]c(=O)c(CC)c(O)c2CC)c1	NNRTI-resistant	RT-Y181C	cytopathic effect / MTT	-	>100 µM
CC1(C)CC=C(c2cn(-c3nccc(C(=O)NC4CCC(N5CC6CCC(C5)O6)CC4)n3)c3ccc(F)c([C@H](OC(C)(C)C)C(=O)O)c23)CC1	NL4-3	V165I	luminescence	-	0.005 µM
CCc1c(Cc2cccc(Cc3nc(SC)nc(OC)c3CC)c2)nc(SC)nc1OC	RT-K103N+Y181C NNRTI-resistant	RT-K103N Y181C	cytopathic effect / MTT	-	>100 µM
Cc1cc(C#N)cc(C)c1Oc1nc(Nc2ccc(C#N)cc2)ncc1SCC(=O)NCCN1CCOCC1	-	RES056	MTT	-	0.3164 µM
C(=N\Nc1nc(-c2ccccc2)cs1)/c1cccnc1	IIIB	-	MTT	-	>11.6 µM
O=C(NCc1ccc(F)cc1F)c1cn2c(c(O)c1=O)C(=O)N1C3CCC(C3)OC1C2	NL4-3	-	GFP	0% human serum	0.002 µM
Cc1cc(OCC(=O)N[C@@H](Cc2ccccc2)[C@H](O)CN(CC(C)C)S(=O)(=O)c2ccc3nc[nH]c3c2)no1	LAI WT	-	cytopathic effect / MTT	-	0.501 µM
CCCc1c(OC#CC2CC2)c2cc(Cl)ccc2[nH]c1=O	Nevirapine-resistant (RT Y181C)	RT-Y181C	-	-	0.083 µM
Cc1cccc(C)c1CNC(=O)[C@@H]1CCN1C(=O)[C@@H](O)C[C@@H](Cc1ccccc1)C(=O)N[C@H]1c2ccccc2OC[C@H]1O	NL4-3	-	p24	-	<1 µM
CC(=O)OCC1=C[C@@H]2C(=O)[C@]3(C=C(C)[C@H](OC(C)=O)[C@@]3(O)[C@@H]1OC(C)=O)[C@H](C)C[C@@H]1[C@H]2C1(C)C	HE	-	cytopathic effect / MTT	-	0.099 µM
Cc1cc(C)cc(Sc2c(C(=O)NNCCO)[nH]c3ccc(Cl)cc23)c1	IIIB	-	cytopathic effect / MTT	-	0.03 µM
CCOC(=O)c1cn(CC(O)CNc2ccccc2C)cc1-c1ccccc1	IIIB	-	cytopathic effect / MTT	-	>33 µM
Cc1cc(C#N)cc(C)c1Oc1nc(Nc2ccc(C#N)cc2)ncc1SCC(=O)NCCCN1CCOCC1	-	RES056	MTT	-	0.3452 µM
Cc1noc(C)c1CNC(=O)[C@H]1N(C(=O)[C@@H](O)C[C@@H](Cc2ccccc2)C(=O)N[C@H]2c3ccccc3OC[C@H]2O)COC12CCCC2	NL4-3	-	p24	-	<0.25 µM
CCOC(=O)c1cn(CC(O)CNc2ccccc2N)cc1-c1ccccc1	IIIB	-	cytopathic effect / MTT	-	>0.8 µM
Cc1cc(C#N)cc(C)c1Oc1nc(Nc2ccc(C#N)cc2)ncc1SCC(=O)NCC1CCCO1	-	Y188L	MTT	-	0.042 µM
Cc1cc(C)cc(S(=O)(=O)c2c(C(=O)NCCO)[nH]c3ccc(Cl)cc23)c1	IIIB	-	cytopathic effect / MTT	-	0.0008 µM
CCc1c(Cc2cccc(Cc3nc(SC)n(C)c(=O)c3CC)c2)nc(SC)n(C)c1=O	NNRTI-resistant	RT-Y181C	cytopathic effect / MTT	-	>100 µM
CCc1c(Cc2cc(Cl)cc(Cl)c2)n(COC2Cc3ccccc3C2)c(=O)[nH]c1=O	NNRTI-resistant (RT K103N Y181C) A17	RT-K103N Y181C	cytopathic effect / MTT	-	>10 µM
O=C(c1ccc(F)cc1)C1Oc2ccccc2C2CC(c3ccc(C(=O)N4CCN(Cc5ccccc5)CC4)cc3)=NN12	LAI	-	GFP / reporter gene	-	>10 µM
Cc1ccccc1S(=O)(=O)c1c(C(=O)NCCO)[nH]c2ccc(Cl)cc12	-	RT-Y181C	cytopathic effect / MTT	-	1.2 µM
C=CCOCn1c(Cc2cc(Cl)cc(Cl)c2)c(CC)c(=O)[nH]c1=O	NNRTI-resistant (RT K103N Y181C) A17	RT-K103N Y181C	cytopathic effect / MTT	-	3 µM
CCCc1c(OC2CCCC2)c2cc(C)ccc2[nH]c1=O	-	-	-	-	0.74 µM
O=[N+]([O-])c1ccc(/C=N/Nc2nc(-c3ccc([N+](=O)[O-])cc3)cs2)cc1	IIIB	-	MTT	-	>73.58 µM
CCC(C)C#COc1c(C(C)C)c(=O)[nH]c2ccc(F)cc12	RT-K103N V108I	RT-103N V108I	-	-	2 µM
N#Cc1ccc(-c2csc(N/N=C/c3cccnc3)n2)cc1	IIIB	-	MTT	-	>7.73 µM
CCc1c(OC#CC2CC2)c2cc(F)ccc2[nH]c1=O	-	-	-	-	0.03 µM
O=C(NCCO)c1[nH]c2ccc(Cl)cc2c1S(=O)(=O)c1ccccc1	-	RT-Y181C	cytopathic effect / MTT	-	1 µM
COc1cccc(OC)c1C1SCC(=O)N1c1cc(C)cc(C)n1	IIIB	-	cytopathic effect	-	1.13 µM
CC(C)c1c(SCC2CCC2)c2cc(F)ccc2[nH]c1=O	-	-	-	-	0.022 µM
COC(=O)c1ccccc1NCC(O)Cn1c(C(=O)NC(C)(C)C)cc2ccccc21	IIIB	-	cytopathic effect / MTT	-	>39 µM
CC(C)c1c(OC#CC2CC2)c2cc(Cl)ccc2[nH]c1=O	-	RT-103N Y181C	-	-	0.8 µM
C/C(=N\Nc1nc(-c2ccc(C#N)cc2)cs1)c1ccc2c(c1)OCO2	IIIB	-	MTT	-	>68.28 µM
O=C(NCc1ccccn1)c1ccc(C2=NN3C(C(=O)c4ccc(Br)cc4)Oc4ccccc4C3C2)cc1	LAI	-	GFP / reporter gene	-	1–10 µM
Cc1ccnc2c1NC(=O)c1cccnc1N2C1CC1	-	K103N	MTT	-	6.039 µM
Cc1ccnc(N2C(=O)CSC2c2c(F)ccc(C)c2Cl)c1	IIIB	-	cytopathic effect	-	0.322 µM
CCCc1c(OCc2ccccc2)c2cc(Cl)ccc2[nH]c1=O	Nevirapine-resistant (RT Y181C)	RT-Y181C	-	-	>5 µM
NC(=O)c1[nH]c2ccc(Cl)cc2c1S(=O)(=O)c1ccccc1	-	RT-K103N Y181C	cytopathic effect / MTT	-	10 µM
O=C(NCCc1ccccn1)c1ccc(C2=NN3C(C(=O)c4ccc(Br)cc4)Oc4ccccc4C3C2)cc1	LAI	-	GFP / reporter gene	-	1–10 µM
N#Cc1ccc(-c2csc(N/N=C/c3ccco3)n2)cc1	IIIB	-	MTT	-	>10.04 µM
Cc1cc(C#N)cc(C)c1Oc1nc(Nc2ccc(C#N)cc2)ncc1SCC(=O)NCc1ccc(O)cc1	-	L100I	MTT	-	0.0402 µM
CC(C)CN(C[C@@H](O)[C@H](Cc1ccccc1)NC(=O)O[C@H]1CCOC1)S(=O)(=O)c1ccc2nc(NC(=O)NCCN(C)C)[nH]c2c1	LAI WT	-	cytopathic effect / MTT	-	0.794 µM
Cc1cc(C#N)cc(C)c1Oc1nc(Nc2ccc(C#N)cc2)ncc1SCC(=O)Nc1ccc(S(C)(=O)=O)cc1	-	Y181C	MTT	-	0.093 µM
CCOC(=O)c1cn(CC(O)CNc2ccccc2Cl)cc1-c1ccccc1	IIIB	-	cytopathic effect / MTT	-	>47.3 µM

A second listing of 8 rows from above:

| SMILES | strain | mutations | method | conditions | value |
|---|---|---|---|---|---|
| Cc1cccc(C)c1CNC(=O)[C@@H]1CCCCN1C(=O)[C@@H](O)C[C@@H](Cc1ccccc1)C(=O)N[C@H]1c2ccccc2OC[C@H]1O | NL4-3 | - | p24 | - | <1 µM |
| CC(C)CN(C[C@@H](O)[C@H](Cc1ccccc1)NC(=O)O[C@H]1CO[C@H]2OCC[C@H]21)S(=O)(=O)c1ccc2nc(NC3CCN(C4CCCC4)CC3)sc2c1 | T13717 | V32I I50V L76V G73S V82I | reporter gene | - | 68 nM |
| Cc1cccc(S(=O)(=O)c2c(C(=O)NCCO)[nH]c3ccc(Cl)cc23)c1 | - | RT-K103N Y181C | cytopathic effect / MTT | - | 1.1 µM |
| Cc1cc(/C=C/C#N)cc(C)c1Oc1ccnc(Nc2ccc(CN3CCN(S(=O)(=O)N(C)C)CC3)cc2)n1 | - | L100I | MTT | - | 0.029 µM |
| C/C(=N\Nc1nc(-c2ccc(C#N)cc2)cs1)c1ccc2c(c1)OCO2 | IIIB | - | MTT | - | >68.28 µM |
| CC(C)CN(C[C@@H](O)[C@H](Cc1ccccc1)NC(=O)O[C@H]1CCOC1)S(=O)(=O)c1ccc2nc(NC(=O)NCCN(C)C)[nH]c2c1 | LAI WT | - | cytopathic effect / MTT | - | 0.794 µM |
| CCc1c(OC#CC2CC2)c2cc(F)ccc2[nH]c1=O | - | - | - | - | 0.03 µM |
| CC(=O)OCC1=C[C@@H]2C(=O)[C@]3(C=C(C)[C@H](OC(C)=O)[C@@]3(O)[C@@H]1OC(C)=O)[C@H](C)C[C@@H]1[C@H]2C1(C)C | HE | - | cytopathic effect / MTT | - | 0.099 µM |